Anti-infective test results gathered from many reports (values: NIAID ChemDB through PubChem).

Shared fields: whole-cell or culture tests; agent: HIV-1

Neighbouring rows are from separate reports. ECn: concentration that inhibits the pathogen or its effect by n%. a–b is a range or a potency band. An empty or dashed field is not shown.

SMILES,strain,read by,changes,read-out,cell line,conditions,value
CC(C)[C@@H](CO)n1cc(C(=O)O)c(=O)c2cc(NCc3c(F)cc(F)cc3F)c(N3CCOCC3)nc21,NL4-3,luciferase,,EC50,HeLa,pseudotyped,<0.01 µM
CCn1cc(C(=O)O)c(=O)c2cc(F)c(N3CCN(c4ccccc4OC)CC3)c(OC(F)F)c21,IIIB,cytopathic effect / MTT,,EC50,C8166,,0.2 µM
CC(C)c1c(CC2CCCCC2)nc(SCc2ccccc2)[nH]c1=O,,,,EC50,C8166,,0.000088 µM
Cc1cc(C)c(CS(=O)c2cccc[n+]2[O-])c(C)c1,IIIB,syncytia,RT-E138K,EC50,CEM,,10 µg/mL
CC(C)=CCN1Cc2cc(Cl)cc3[nH]c(=O)n(c23)C[C@@H]1C,IIIB,cytopathic effect / XTT,RT-Y181C,EC50,MT-4,,124 µM
CC(C)CN(C[C@@H](O)[C@H](Cc1ccccc1)NC(=O)O[C@H]1CCOC1)S(=O)(=O)c1ccc(-c2ccon2)s1,IIIB,p24,,EC50,CEM,,<1 µM
Nc1ncnc2c1ncn2[C@@H]1O[C@H](OCP(=O)(O)O)C=C1F,WT,cytopathic effect,,EC50,MT-2,,12.3 µM
CC(C)=CCC/C(C)=C/CC/C(C)=C/Cc1c(O)cc2c(c1OS(=O)(=O)O)CN(C[C@@H]1O[C@@H](O)[C@@H](O)[C@H](O)[C@H]1O)C2=O,,luciferase / luminescence,,EC50,SupT1,pseudotyped,49.6 µM
CC(C)CN(C[C@@H](O)[C@H](Cc1ccccc1)NC(=O)[C@@H](NC(=O)CNC(C)(C)c1ccc(F)cc1)C(C)(C)C)S(=O)(=O)c1ccc(N)cc1,RF,,,EC50,MT-2,,<1 µM
O=S(=O)(O)c1cc(S(=O)(=O)O)c2cc(OS(=O)(=O)c3cccc4c(S(=O)(=O)Oc5ccc6cc(S(=O)(=O)O)cc(S(=O)(=O)O)c6c5)cccc34)ccc2c1,HE,cytopathic effect / MTT,,EC50,MT-4,,8.1 µM
CCc1c(CC2CCCCC2)nc(SCC(C)C)[nH]c1=O,,,,EC50,C8166,,0.101 µM
C=C(C)[C@@H]1CC[C@]2(C(=O)NCCCCCCCC(=O)N[C@@H](CC(C)C)[C@@H](O)CC(=O)O)CC[C@]3(C)[C@H](CC[C@@H]4[C@@]5(C)CC[C@H](O)C(C)(C)[C@@H]5CC[C@]43C)[C@@H]12,LAI,syncytia,GP41-A101S,EC50,HeLa P4 + HeLa,,<10 µM
COc1ccc(Cn2c(C(=O)c3cc(C)cc(C)c3)c(C(C)C)c(=O)[nH]c2=O)cc1,,cytopathic effect / MTT,,EC50,MT-4,,0.003 µg/mL
CCOc1c(Cl)cc(F)c(CCNC(=S)Nc2ccc(Br)cn2)c1Cl,IIIB,cytopathic effect / XTT,RT-Y181C,EC50,MT-4,,0.16 µM
CC(C)[C@H](C)CC[C@](C)(O)[C@H]1C(=O)C[C@H]2[C@@H]3C(=O)C=C4C[C@@H](O)CC[C@]4(C)[C@H]3CC[C@@]21C,NL4-3,MTT,N155H integrase inhibitor-resistant,EC50,MT-4,,0.1269 µM
CC[C@H](C)[C@H](NC(=O)c1cnc2ccccc2n1)C(=O)N[C@@H](Cc1ccccc1)[C@H](O)CN(CC(C)C)S(=O)(=O)c1ccc(F)c(NC(C)=O)c1,IIIB,p24,,EC50,CEM,,<10 µM
CC(C)=CCC/C(C)=C/CC/C(C)=C/Cc1c(O)cc2c(c1OS(=O)(=O)O)CN(CCO)C2=O,,luciferase / luminescence,,EC50,SupT1,pseudotyped,1 µM
CC(C)CN(C[C@@H](O)[C@H](Cc1ccccc1)NC(=O)[C@@H](NC(=O)CNC(C)(C)c1cc(F)cc(F)c1)C(C)(C)C)S(=O)(=O)c1ccc(N)cc1,RF,,,EC50,MT-2,,<1 µM
Cn1c2c(c(=O)n(C)c1=O)S[C@@H]1[C@H](O2)O[C@H](COc2ccccc2)[C@@H](OCc2ccccc2)[C@@H]1OCc1ccccc1,LAI,RT activity,,EC50,PBMC,,>100 µM
FC(F)(Sc1ccccn1)c1nc2ccccc2o1,RF,cytopathic effect / XTT,,EC50,CEM + CEM-SS,,29.2 µM
CC1(C)[C@@H](CCO)C[C@H]1n1cnc2c(N)nc(N)nc21,,cytopathic effect,,EC50,CEM,,>20 µg/mL
FC(F)(Sc1ccccc1)c1nc2ccccc2o1,RF,cytopathic effect / XTT,,EC50,CEM + CEM-SS,,36 µM
CCOC(=O)N[C@@H](Cc1ccccc1)[C@H](O)CN(CC(C)C)S(=O)(=O)c1ccc(Cl)c(Cl)c1,IIIB,p24,,EC50,CEM,,<10 µM
CC1(C)[C@@H](CCO)C[C@H]1n1nnc2c(N)ncnc21,,cytopathic effect,,EC50,MT-4,,>100 µg/mL
CCc1c(C(=O)c2cc(C)cc(C)c2)n(Cc2cccnc2)c(=O)[nH]c1=O,,cytopathic effect / MTT,,EC50,MT-4,,0.012 µg/mL
CC(C)CN(C[C@@H](O)[C@H](Cc1ccccc1)NC(=O)[C@@H](NC(=O)CCNC(C)(C)c1ccccc1)C(C)(C)C)S(=O)(=O)c1ccc(N)cc1,RF,,,EC50,MT-2,,<1 µM
CCC(=O)c1ccc(F)c([C@@H]2C[C@@H]2NC(=O)Nc2ccc(C#N)cn2)c1O,LAI,β-galactosidase / luminescence,NNRTI-resistant (RT Y188C),EC50,TZM-bl,,0.00021 µM
O=C(NCc1c(F)cc(F)cc1F)c1cn2c(c(O)c1=O)C(=O)N1[C@H]3CC[C@H](C3)O[C@@H]1C2,,luciferase,,EC50,HOS,,<0.004 µM
Cc1c(CC2CCCCC2)nc(SCc2ccccc2)[nH]c1=O,,,,EC50,C8166,,1.254 µM
Nc1c(C(=O)NCc2ccc(F)cc2F)c(=O)n(O)c2ncc(CCS(=O)(=O)c3ccccc3)cc12,,luciferase,AGT (GGGAGT),EC50,HOS,,<0.001 µM
Cc1cc(C#CCCO)cc(C)c1Oc1ccnc(Nc2ccc(C#N)cc2)n1,IIIB,MTT,E138K,EC50,MT-4,,0.05 µM
O=S(=O)(Cc1ccccc1I)c1cccc[n+]1[O-],IIIB,syncytia,,EC50,CEM,,8 µg/mL
CC(C)=CCC/C(C)=C/CC/C(C)=C/Cc1c(O)cc2c(c1OS(=O)(=O)O)CN(CCCC(=O)O)C2=O,,luciferase / luminescence,,EC50,SupT1,pseudotyped,9.6 µM
CCC(C)C(NC(=O)c1ccccc1SSc1ccccc1C(=O)NC(C(=O)O)C(C)CC)C(=O)O,6R (AZT-resistant),cytopathic effect / XTT,,EC50,MT-4,,0.3 µM
CCN1c2ncc(CCOc3cccc4c3CN(C)C(=O)N4C)cc2C(=O)N(C)c2cccnc21,IIIB,p24,,EC50,C8166,,<0.01 µM
CCc1c(Cc2ccccc2)nc(SCC(=O)c2ccccc2)[nH]c1=O,,,,EC50,C8166,,0.08015 µM
C#C[C@]1(CO)O[C@@H](n2cnc3cncnc32)C[C@@H]1O,IIIB,cytopathic effect / MTT,,EC50,MT-4,,38 µg/mL
CC(=O)OC[C@H]1O[C@@H]2Oc3c(c(=O)n(C)c(=O)n3C)S[C@@H]2[C@@H](OC(C)=O)[C@H]1OC(C)=O,LAI,RT activity,,EC90,PBMC,,47.7 µM
CCCOc1nc(N)nc2c1ncn2[C@@H]1C=C[C@H](CO)C1,,,,EC50,MT-2,,2.5 µM
CCOC(=O)c1cc(C(=O)c2ccc(Cl)cc2)n2ccc(C(=O)NCc3ccccn3)cc12,,p24 / antigen,,EC50,H9,,98.1 µM
Cc1ccc(C)c(CS(=O)c2ccc(Cl)c[n+]2[O-])c1,IIIB,p24,,EC50,CEM,,~20 µg/mL
CC(C)(C)[C@@H](CO)n1cc(C(=O)NCCN2CCOCC2)c(=O)c2cc(Cc3cccc(Cl)c3F)c(NCCN3CCOCC3)nc21,NL4-3,luciferase,,EC50,HeLa,pseudotyped,0.01–0.1 µM
CC(C)CN(C[C@@H](O)[C@H](Cc1ccccc1)NC(=O)[C@@H](NC(=O)CNC(C)(C)c1cccc(F)c1)C(C)(C)C)S(=O)(=O)c1ccc(N)cc1,RF,,,EC50,MT-2,,<1 µM
CCOC(=O)c1cn([C@H](CO)C(C)C)c2nc(OC)c(NCc3ccc(C)cc3)cc2c1=O,NL4-3,luciferase,,EC50,HeLa,pseudotyped,>0.1 µM
CSC(C)(C)[C@H](NC(=O)CNC(C)(C)c1cccc(F)c1)C(=O)N[C@@H](Cc1ccccc1)[C@H](O)CN(CC(C)C)S(=O)(=O)c1ccc2ncccc2c1,RF,,,EC50,MT-2,,<1 µM
CCc1c(C(=O)c2cc(C)cc(C)c2)n(Cc2ccnc(C)c2)c(=O)[nH]c1=O,,cytopathic effect / MTT,,EC50,MT-4,,0.001 µg/mL
CCc1c(CC2CCCCC2)nc(SCC(=O)c2ccc(OC)cc2)[nH]c1=O,,,,EC50,C8166,,0.000217 µM
CC(=O)OCCCc1cnc2c(c1)c(N)c(C(=O)NCc1ccc(F)cc1F)c(=O)n2O,,luciferase,AGT (GGGAGT),EC50,HOS,,<0.001 µM
CC(C)=CCOc1cc(NC(=S)c2ccsc2C)ccc1Cl,4xAZT(RT-D67N K70R T215Y K219Q),p24,,EC50,CEM + CEM-SS,,0.006 µM
CC(C)[C@@H](CO)n1cc(C(=O)O)c(=O)c2cc(-c3ccncc3)ncc21,NL4-3,luciferase,,EC50,HeLa,pseudotyped,>0.1 µM
C=C1CN(S(=O)(=O)c2ccc(C)cc2)CCCN(Cc2ccccc2)CCCN(S(=O)(=O)c2ccc(C)cc2)C1,A17,,Pyridinone-resistant (RT K103N Y181C),EC50,MT-2,,2 µM
CC(C)CN(C[C@@H](O)[C@H](Cc1ccccc1)NC(=O)O[C@H]1CCOC1)S(=O)(=O)c1ccc(N)cc1,IIIB,p24,,EC50,U-937,,0.218 µM
Nc1ccn([C@H]2C[C@H]3OC[C@@H](O)[C@H]3O2)c(=O)n1,,,,EC50,CEM + CEM-SS,,>100 µM
CCN1c2ncc(CCOc3cccc4c3CNC(=O)N4C)cc2C(=O)N(C)c2cccnc21,,p24,RT-K103N Y181C,EC50,C8166,,<0.01 µM
CC(C)(C)C1=NC(c2ccccc2)(C(F)(F)F)NC(=O)N1,NL4-3,luciferase,L100I,EC50,TZM-bl,,43.1 µM
CC(C)c1c(C(=O)c2cc(F)cc(F)c2)n(Cc2cccnc2)c(=O)[nH]c1=O,,cytopathic effect / MTT,,EC50,MT-4,,0.049 µg/mL
COc1ccc(S(=O)(=O)N(CC(C)C)C[C@@H](O)[C@H](Cc2ccccc2)NC(=O)OC2CCOC2)cc1,IIIB,p24,,EC90,CEM,,≤0.1 µM
CCN1c2ncc(CCOc3cccc4c3CNC4=O)cc2C(=O)N(C)c2cccnc21,IIIB,p24,,EC50,C8166,,<0.01 µM
CC1(C)[C@@H](CCO)C[C@H]1n1nnc2c(=O)[nH]cnc21,,cytopathic effect,,EC50,MT-4,,>100 µg/mL
CC(=O)O[C@@H]1[C@@H](OC(C)=O)[C@H](C)O[C@@H]2Oc3c(c(=O)n(C)c(=O)n3C)S[C@@H]21,LAI,RT activity,,EC50,PBMC,,29 µM
FC(F)(Sc1ncccn1)c1nc2ccccc2o1,HEPT (RT P236L),cytopathic effect / XTT,RT-P236L,EC50,CEM + CEM-SS,,8.64 µM
CCOC(=O)c1cc(C(=O)c2ccccc2)n2ccc(C(=O)N[C@@H](Cc3c[nH]c4ccccc34)C(=O)OC)cc12,,p24 / antigen,,EC50,H9,,103.2 µM
COc1cc2c(cc1Cc1cccc(Cl)c1F)c(=O)c(C(=O)O)cn2[C@H](CO)C(C)C,,luciferase,,EC50,HOS,,<0.004 µM
CC(=O)Nc1nc(C)c(S(=O)(=O)N(CC(C)C)C[C@@H](O)[C@H](Cc2ccccc2)NC(=O)[C@H](CC(N)=O)NC(=O)c2ccc3ccccc3n2)s1,IIIB,p24,,EC50,CEM,,<1 µM
CC(C)(C)[C@@H](CO)n1cc(C(=O)O)c(=O)c2cc(Cc3cccc(Cl)c3F)c(N3CCNCC3)nc21,NL4-3,luciferase,,EC50,HeLa,pseudotyped,0.01–0.1 µM
CC(=O)Nc1ccc(S(=O)(=O)N(CC(C)C)C[C@@H](O)[C@H](Cc2ccccc2)NC(=O)OCc2ccccc2)cc1,IIIB,p24,,EC50,CEM,,<10 µM
CCN1c2ncc(CCOc3cccc4c3CN(O)C4=O)cc2C(=O)N(C)c2cccnc21,,p24,RT-K103N Y181C,EC50,C8166,,0.01–0.05 µM
CC(C)CN(C[C@@H](O)[C@H](Cc1ccccc1)NC(=O)[C@@H](NC(=O)CNC(C)(C)c1cccc(F)c1)C(C)(C)C)S(=O)(=O)c1ccc2cn[nH]c2c1,RF,,,EC50,MT-2,,<1 µM
Cn1c2c(c(=O)n(C)c1=O)S[C@H]1[C@@H](O2)O[C@H](COc2ccccc2)[C@@H](OCc2ccccc2)[C@@H]1OCc1ccccc1,LAI,RT activity,,EC50,PBMC,,>100 µM
CCOC(=O)c1cc(C(=O)c2ccc(N)cc2)n2ccc(C(=O)NCc3ccccn3)cc12,,p24 / antigen,,EC50,H9,,108.7 µM
CC1(C)[C@@H](CCO)C[C@H]1n1cnc2c(=O)[nH]cnc21,,cytopathic effect,,EC50,MT-4,,>100 µg/mL
CCN1c2ncc(CCOc3cccc4c3CNC(=O)N4)cc2C(=O)Nc2c(C)ccnc21,IIIB,p24,,EC50,C8166,,<0.01 µM
COc1cc2c(cc1Cc1c(F)cc(F)cc1F)c(=O)c(C(=O)O)cn2[C@H](CO)C(C)(C)C,NL4-3,luciferase,,EC50,HeLa,pseudotyped,0.01–0.1 µM
CCOC(=O)c1cc(C(=O)c2ccc(F)cc2)n2ccc(C(=O)NCc3ccccn3)cc12,,p24 / antigen,,EC50,H9,,54.4 µM
COc1nc2c(cc1NC1CCCc3ccccc31)c(=O)c(C(=O)O)cn2[C@H](CO)C(C)C,NL4-3,luciferase,,EC50,HeLa,pseudotyped,>0.1 µM
Cc1cc(Cl)cc(C(=O)c2c(C(C)C)c(=O)[nH]c(=O)n2Cc2ccnc(C)c2)c1,,cytopathic effect / MTT,,EC50,MT-4,,0.0027 µg/mL
Cc1c(CC2CCCCC2)nc(SCC(=O)c2ccccc2)[nH]c1=O,,,,EC50,C8166,,0.0758 µM